PubChem BioAssay AID1259414, Drosophila RNAi Screening Center | 2018
The screen tested about 24,000 reagents; below is a random part of those that have a named target and a result. Over the whole deposit, about 1,210 (5%) are marked active. 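Inactive calls also include excluded dsRNAs with several or no targets, genes unexpressed in JW18, and well A1, regardless of score.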 Names joined by + are all predicted targets of the reagent. No sequences are given here.

Test: 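Host factors increasing or decreasing Wolbachia levels in cultured fly cells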 (primary screen)
Cell system: Drosophila JW18 cells infected with Wolbachia
Reagents: long dsRNA against Drosophila genes, 0.25 µg dsRNA per well of a 384-well plate
Timing: 5 days
Challenge: cells persistently infected with Wolbachia before knock-down; no added drug
Detection: 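Automated imaging of bacterial rRNA staining divided by host cell count, reported as plate-normalised robust z-score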
Direction: Wolbachia per cell robust z: higher = more Wolbachia per host cell than the plate typical
Hit rule: 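Hit when robust z is 1.5 or more, or -1.5 or less, in at least two of three replicates; excludes dsRNAs with several or no targets, genes not expressed in JW18 and well A1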

gene knocked down | DRSC id | Wolbachia per cell robust z, rep 1 | Wolbachia per cell robust z, rep 2 | Wolbachia per cell robust z, rep 3 | Call
t-Grip91 (GeneID 34931) | DRSC01506 | -1.19 | -1.61 | -1.31 | inactive
CG16957 (GeneID 34755) | DRSC02545 | 1.08 | -0.212 | -3.84 | inactive
CG30076 (GeneID 246438) | DRSC05494 | 1.83 | 0.705 | 0.824 | inactive
CG30076 (GeneID 246438) | DRSC28026 | -1.14 | -1.35 | -1.23 | inactive
CG12259 (GeneID 43347) | DRSC23281 | -0.253 | -0.392 | 0.395 | inactive
CG12259 (GeneID 43347) | DRSC28180 | 0.875 | -0.575 | 0.759 | inactive
SerRS (GeneID 33518) | DRSC00496 | 1.45 | 0.0531 | 0.441 | inactive
Fbp2 (GeneID 34259) | DRSC03327 | 0.607 | 0.83 | -0.76 | inactive
Fbp2 (GeneID 34259) | DRSC29036 | 0.831 | 0.602 | -0.216 | inactive
CG32228 (GeneID 326202) | DRSC22296 | -0.167 | -1.53 | -1.25 | inactive
CG30392 (GeneID 246587) | DRSC22341 | 0.269 | 0.258 | -1.18 | inactive
CG11790 (GeneID 42999) | DRSC14390 | -1.23 | -2.23 | -0.148 | inactive
ich (GeneID 41069) | DRSC14448 | 0.511 | 0.162 | 0.332 | inactive
ich (GeneID 41069) | DRSC29647 | 0.694 | 0.904 | -0.0388 | inactive
CG7251 (GeneID 33791) | DRSC03039 | -0.573 | -6.35 | 0.0896 | inactive
CG7251 (GeneID 33791) | DRSC28293 | -2.58 | -2.39 | -1.58 | inactive
CG4884 (GeneID 43357) | DRSC15671 | 0.441 | -0.563 | -0.59 | inactive
CG4884 (GeneID 43357) | DRSC26329 | 0.842 | 0.944 | -0.0397 | inactive
Or92a (GeneID 42425) | DRSC16771 | -4.89 | -0.399 | -0.63 | inactive
REPTOR-BP (GeneID 34371) | DRSC02683 | 1.63 | 0.0388 | 0.853 | inactive
CG15522 (GeneID 43546) | DRSC15059 | -1.99 | 0.315 | -4.99 | active
CG15522 (GeneID 43546) | DRSC29412 | -1.75 | -0.966 | -0.61 | inactive
Ork1 (GeneID 32020) | DRSC20266 | -3.19 | 0.0385 | -8.1 | inactive
CG31253 + CG31131 | DRSC13839 | 0.527 | -1.63 | -0.45 | inactive
Vps35 (GeneID 37536) | DRSC04519 | 0.105 | 0.402 | 0.199 | inactive
Vps35 (GeneID 37536) | DRSC28790 | 0.0425 | 1.52 | -0.0141 | inactive
CG32260 (GeneID 317943) | DRSC08084 | 0.0997 | -0.0416 | -0.116 | inactive
CG32260 (GeneID 317943) | DRSC24480 | 0.218 | -1.4 | -0.409 | inactive

No new results follow: 5 of the entries above.
gene knocked down | DRSC id | Wolbachia per cell robust z, rep 1 | Wolbachia per cell robust z, rep 2 | Wolbachia per cell robust z, rep 3 | Call
Fbp2 (GeneID 34259) | DRSC29036 | 0.831 | 0.602 | -0.216 | inactive
CG32228 (GeneID 326202) | DRSC22296 | -0.167 | -1.53 | -1.25 | inactive
CG30392 (GeneID 246587) | DRSC22341 | 0.269 | 0.258 | -1.18 | inactive
CG11790 (GeneID 42999) | DRSC14390 | -1.23 | -2.23 | -0.148 | inactive
ich (GeneID 41069) | DRSC14448 | 0.511 | 0.162 | 0.332 | inactive
